Compound potency records, mixed from different reports. Data source: NIAID ChemDB in PubChem.

Shared fields: whole-cell or culture tests; species: HIV-1; method: luciferase; read-out: EC50

Lines come from different laboratories, so protocols vary.

{"compound": "COc1cnc(-c2cnccn2)c2[nH]cc(C(=O)C(=O)N3CCC(=C(Br)c4ccccc4)CC3)c12", "cells": "HeLa", "value": "<1 µM"}
{"compound": "C[C@H]1CN(C(=NC#N)c2ccccc2)CCN1C(=O)C(=O)c1c[nH]c2c(-n3ccnn3)ncc(F)c12", "strain": "Luciferase reporter virus", "cells": "HeLa(CD4+) + HeLa", "value": "<0.5 µM"}
{"compound": "Cc1cc(S(N)(=O)=O)ccc1NC(=O)COc1ccc(Cl)cc1C(=O)c1cc(F)cc(C(F)(F)F)c1", "strain": "IIIB", "cells": "HELA MAGI", "mutations": "RT-V108I", "value": "0.0019 µM"}
{"compound": "CS(=O)(=O)/N=C(\\c1ccccc1)N1CCN(C(=O)C(=O)c2c[nH]c3c(-n4ccnn4)ncc(F)c23)CC1", "strain": "Luciferase reporter virus", "cells": "HeLa(CD4+) + HeLa", "value": "<0.5 µM"}
{"compound": "Cc1cn(CC(=O)Nc2ccc([N+](=O)[O-])cn2)c(=O)[nH]c1=O", "strain": "UG070", "cells": "TZM-bl", "value": "32.68 µM"}
{"compound": "CCN(CC)CCN=C(c1ccccc1)N1CCN(C(=O)C(=O)c2c[nH]c3c(Br)ccc(F)c23)CC1", "strain": "Luciferase reporter virus", "cells": "HeLa(CD4+) + HeLa", "value": "<0.5 µM"}
{"compound": "Cc1ccc(-n2c(C)nnc2SCC(=O)Nc2ccccc2-c2ccccc2)cc1", "strain": "NL4-3", "cells": "HeLa + HeLa-JC53", "mutations": "RT-K103N Y181C", "value": ">10 µM"}
{"compound": "O=C(Cn1cnc2c([N+](=O)[O-])cccc21)Nc1ccccn1", "strain": "ADA5", "cells": "TZM-bl", "value": "9.59 µM"}
{"compound": "Cc1cc(C#N)cc(C)c1Nc1nc(Nc2ccc(C#N)cc2)nc2c(C)csc12", "strain": "Y-188L", "cells": "HeLa", "value": "<0.01 µM"}
{"compound": "CC(=O)OCCCc1cnc2c(c1)c(N)c(C(=O)NCc1ccc(F)cc1F)c(=O)n2O", "cells": "HOS", "mutations": "+G insertion (GGGGAGT)", "value": "<0.001 µM"}
{"compound": "Nc1ccccc1C(=O)N1CCN(C(=O)C(=O)c2c[nH]c3ccccc23)CC1", "cells": "HeLa + HELA CD4+/CCR5", "value": ">10 µM"}
{"compound": "O=C(NCc1c(F)cc(F)cc1F)c1cn2c(c(O)c1=O)C(=O)N1[C@H]3CC[C@H](C3)O[C@@H]1C2", "cells": "HOS", "value": "<0.004 µM"}
{"compound": "CCc1cccc2c(C(=O)C(=O)N3CCN(C(=O)c4ccccc4)C[C@@H]3C)c[nH]c12", "cells": "HeLa + HELA CD4+/CCR5", "value": "<10 µM"}
{"compound": "O=C(CCC(=O)n1cnc2ccccc21)n1cnc2ccccc21", "strain": "IIIB", "cells": "TZM-bl", "value": "40 µM"}
{"compound": "CCc1cccc2c(C(=O)C(=O)N3CCN(C(=O)c4ccccn4)C[C@H]3C)c[nH]c12", "cells": "HeLa + HELA CD4+/CCR5", "value": "<10 µM"}
{"compound": "COc1cnc(-c2ccc(C(=O)N3CCCCC3)cc2)c2[nH]cc(C(=O)C(=O)N3CCC(=C(C#N)c4ccccc4)CC3)c12", "cells": "HeLa", "value": "<1 µM"}
{"compound": "CCc1ccc(-n2c(C)nnc2SCC(=O)Nc2ccc(C)cc2Cl)c2ccccc12", "strain": "NL4-3", "cells": "HeLa + HeLa-JC53", "mutations": "RT-K103N Y181C", "value": "0.032 µM"}
{"compound": "C[C@H]1CO[C@@H]2Cn3cc(C(=O)NCc4ccc(F)cc4F)c(=O)c(O)c3C(=O)N12", "cells": "HOS", "value": "<0.004 µM"}
{"compound": "O=C(Cn1cnc2ccccc21)Nc1ccccn1", "strain": "IIIB", "cells": "TZM-bl", "value": "381 µM"}
{"compound": "Nc1ccn([C@@H]2CS[C@H](CO)O2)c(=O)n1", "strain": "NL4-3", "cells": "TZM-bl", "mutations": "M184I-R263K", "value": "0.6442 µM"}
{"compound": "COc1ccc(Cl)c2[nH]cc(C(=O)C(=O)N3CCN(C(=O)c4ccccc4)CC3)c12", "cells": "HeLa + HELA CD4+/CCR5", "value": "<10 µM"}
{"compound": "COc1ncc(OC)c2c(C(=O)C(=O)N3CCC(=C(c4ccccc4)c4ccccn4)CC3)c[nH]c12", "cells": "HeLa", "value": "<1 µM"}
{"compound": "Cc1cc(C)c(Oc2nc(Nc3ccc(C#N)cc3)nc3sc4c(c23)CCCC4)c(C)c1", "strain": "L1001-K103N", "cells": "HeLa", "value": ">0.1 µM"}
{"compound": "O=C(CCC(=O)Nc1ccc(Br)cn1)Nc1ccc(Br)cn1", "strain": "UG070", "cells": "TZM-bl", "value": "35.04 µM"}
{"compound": "CC[C@]1(CO)O[C@@H](n2cnc3c(N)ncnc32)C[C@@H]1O", "cells": "HOS", "mutations": "SSGR+T215Y (delta)Env", "value": ">0.7 µM"}
{"compound": "Cc1cc(C#N)cc(C)c1Oc1nc(Nc2ccc(C#N)cc2)nc2sccc12", "strain": "L1001-K103N", "cells": "HeLa", "value": "0.01–0.1 µM"}
{"compound": "C[C@H]1CN(C(=NC#N)c2ccccc2)CCN1C(=O)C(=O)c1c[nH]c2c(-c3nccs3)ccc(F)c12", "strain": "Luciferase reporter virus", "cells": "HeLa(CD4+) + HeLa", "value": "<0.5 µM"}
{"compound": "COc1cnc(-n2cnc(C)n2)c2[nH]cc(C(=O)C(=O)N3CCC(=C(c4ccccc4)c4nnc(C5CCC5)o4)CC3)c12", "cells": "HeLa", "value": "<1 µM"}
{"compound": "C[C@@H]1CCO[C@H]2Cn3cc(C(=O)NCc4ccc(F)cc4F)c(=O)c(O)c3C(=O)N12", "cells": "HOS", "mutations": "+G insertion (GGGGAGT)", "value": "<0.001 µM"}
{"compound": "Cc1ccc2cccc(C)c2c1-n1c(C)nnc1SCC(=O)Nc1ccccc1Br", "strain": "NL4-3", "cells": "HeLa + HeLa-JC53", "mutations": "RT-Y188L", "value": "0.48 µM"}
{"compound": "C#C[C@@]1(COP(=O)(O)OP(=O)(O)OP(=O)(O)O)C=C[C@H](n2cc(C)c(=O)[nH]c2=O)O1", "strain": "NL4-3", "cells": "TZM-bl", "mutations": "M184V", "value": "1.7 µM"}
{"compound": "O=C(C(=O)N1CCN(C(=O)c2cccc(O)c2)CC1)c1c[nH]c2cccc(F)c12", "cells": "HeLa + HELA CD4+/CCR5", "value": "<10 µM"}
{"compound": "Cc1nnc(SCC(=O)Nc2ccc(S(N)(=O)=O)cc2Cl)n1-c1ccc(N(C)C)c2ccccc12", "strain": "NL4-3", "cells": "HeLa + HeLa-JC53", "mutations": "RT-Y188L", "value": "0.088 µM"}
{"compound": "O=C(Cn1ccc(=O)[nH]c1=O)Nc1ccc([N+](=O)[O-])cn1", "strain": "ADA5", "cells": "TZM-bl", "value": "1.3 µM"}
{"compound": "Cc1cccc2c(C(=O)C(=O)N3CCN(C(=O)c4ccccn4)C[C@H]3C)c[nH]c12", "cells": "HeLa + HELA CD4+/CCR5", "value": "<10 µM"}
{"compound": "Cc1cc(C)c(Oc2nc(Nc3ccc(C#N)cc3)nc3sccc23)c(C)c1", "strain": "L1001-K103N", "cells": "HeLa", "value": "0.01–0.1 µM"}
{"compound": "CN=C(c1ccccc1)N1CCN(C(=O)C(=O)c2c[nH]c3ccccc23)CC1", "strain": "Luciferase reporter virus", "cells": "HeLa(CD4+) + HeLa", "value": ">0.5 µM"}
{"compound": "Cc1ccc(-n2c(C)nnc2SCC(=O)Nc2cccc(Cl)c2Cl)cc1", "strain": "NL4-3", "cells": "HeLa + HeLa-JC53", "mutations": "RT-K103N Y181C", "value": "0.11 µM"}
{"compound": "COc1ccnc2[nH]cc(C(=O)C(=O)N3C4CCC3CN(C(=O)c3ccccc3)C4)c12", "strain": "QH0692", "cells": "TZM-bl", "value": "1.2 µM"}
{"compound": "COc1ccc(-n2c(C)nnc2SCC(=O)Nc2ccc(S(N)(=O)=O)cc2Cl)c2ccccc12", "strain": "NL4-3", "cells": "HeLa + HeLa-JC53", "mutations": "RT-Y188L", "value": "0.11 µM"}
{"compound": "COc1ccnc2[nH]cc(C(=O)C(=O)N3C4CCCC3CN(C(=O)c3ccccc3)C4)c12", "strain": "SF162", "cells": "TZM-bl", "value": "0.39 µM"}
{"compound": "COc1cnc(-n2cnc(C)n2)c2[nH]cc(C(=O)C(=O)N3CCC(=C(c4ccccc4)c4cnn(Cc5ccccc5)c4)CC3)c12", "cells": "HeLa", "value": "<1 µM"}
{"compound": "Cc1ccc(-n2c(CO)nnc2SCC(=O)Nc2ccc(C)cc2Br)cc1", "strain": "NL4-3", "cells": "HeLa + HeLa-JC53", "mutations": "RT-K103N Y181C", "value": ">10 µM"}

3 of the rows above, restated:

compound | strain | cells | mutations | value
CCN(CC)CCN=C(c1ccccc1)N1CCN(C(=O)C(=O)c2c[nH]c3c(Br)ccc(F)c23)CC1 | Luciferase reporter virus | HeLa(CD4+) + HeLa | - | <0.5 µM
Cc1ccc(-n2c(C)nnc2SCC(=O)Nc2cccc(Cl)c2Cl)cc1 | NL4-3 | HeLa + HeLa-JC53 | RT-K103N Y181C | 0.11 µM
Nc1ccccc1C(=O)N1CCN(C(=O)C(=O)c2c[nH]c3ccccc23)CC1 | - | HeLa + HELA CD4+/CCR5 | - | >10 µM

a–b is a range or a potency band. ECn is the concentration giving n% inhibition of infection, replication or growth. An empty or dashed field is not shown.